The source of these data is patent US10543221B2, “Beta-lactamase inhibitors, formulations, and uses thereof” (priority 2016, dated 2020).

This assay concerns K. pneumoniae strain expressing KPC-2. The settings on record: single agent; K. pneumoniae ATCC 4683, phenotype KPC-2.

Take `Cc1cc(C)c2c(CP(=O)(O)O)cc(=O)oc2c1`: the MIC was greater than 32 µg/mL.

By MIC is commonly meant the lowest concentration found to suppress growth. High values mean weaker potency, low ones greater potency.
